Test results published in US10995358B2, “Rapid antibiotic susceptibility test using membrane fluorescence staining and spectral intensity ratio improved by flow cytometry dead to live population ratio” (POCARED Diagnostics LTD., priority 2017, dated 2021).

Tested on: E. coli
Assay: Flow cytometry SIR/SDL dead/live analysis of FM1-43 stained bacteria under Gentamycin exposure
Format: cell-based
Conditions: 120 minutes; for Mean FL1-H: 530 nm; for Mean FL3-H: 610 nm
Method: In this Example, E. coli bacteria samples were incubated with Gentamycin in series dilution from 0 to 32 μgr/ml for 120 minutes. Post incubation the samples were stained with the dye FM1-43 and immediately measured by flow cytometry analysis on light scatter analysis for gating the bacteria and with fluorescence filters: λ1=530/30 and λ2=616/16 nm to analyze the SIR. Moreover gating of the Dead and live bacteria were determined.
From such instant flow-cytometry analysis the SIR and SDL values are evaluated. While performing the same analysis over the whole antibiotic concentrations dilution series the SIR and SDL values were extracted to the concentration series, the data is summarized in Table 5. In Table 5, mean FL1-H and FL3-H is the average of the individual points in the bacteria gated population, i.e. of all measured bacteria. In other words, Fl-1 and FL-3 are merely the fluorescence intensity of each event (bacteria) per a certain fluorescence filter. By referring to FL-1 or FL-3 this means that the mean (average) values of all the events is calculated in the dot plot. FL-1 it is at 530 (±15) nm and FL-3 is at 610 (±10) nm. SIR, is the ratio of FL-3/FL-1. […] So, in order to obtain SIR all that is needed are the FL-3 and FL-1 mean values of the bacterial population in the dot plot. […] By using a predetermined gates, the number of dead and live bacteria can be counted, and then the ratio of dead to live can be calculated and multiplied by the SIR to obtain SDL. The gates are combination of FL-1 and FL-3 and predetermined by control live sample. Plotting SIR, SDL, and DL versus antibiotic concentration is represented in FIG. 15 as (labeled as “SIR”, “SDL”, and “DL”). In FIG. 15, SIR, SDL, and DL are all normalized to the maximum value in the series (column)/dataset and then to 100.
From the data, we can determine the MIC by approximating the MIC as a function of antimicrobial concentration to an error function (FIG. 16) of the following type;
The MIC is the value of the parameter c or a function of it. Specifically, the MIC gets the value of “c”. The value of “c” is the middle of the step in a regular step function of where the step function equals to zero when its values are normalized between −1 to 1.

Substance: gentamicin
- Mean FL1-H (Gentamycin 0.25 microg/ml): 6,069.37
- Mean FL3-H (Gentamycin 0.25 microg/ml): 7,420.25
- Mean FL1-H (Gentamycin 0.5 microg/ml): 5,756.56
- Mean FL3-H (Gentamycin 0.5 microg/ml): 7,124.38
- Mean FL1-H (Gentamycin 1 microg/ml): 6,375.92
- Mean FL3-H (Gentamycin 1 microg/ml): 9,161.63
- Mean FL1-H (Gentamycin 2 microg/ml): 7,064.36
- Mean FL3-H (Gentamycin 2 microg/ml): 10,073.67
- Mean FL1-H (Gentamycin 4 microg/ml): 6,507.78
- Mean FL3-H (Gentamycin 4 microg/ml): 11,180.52
- Mean FL1-H (Gentamycin 8 microg/ml): 6,140.02
- Mean FL3-H (Gentamycin 8 microg/ml): 13,145.14
- Mean FL1-H (Gentamycin 16 microg/ml): 7,029.26
- Mean FL3-H (Gentamycin 16 microg/ml): 16,724.90
- Mean FL1-H (Gentamycin 32 microg/ml): 5,949.04
- Mean FL3-H (Gentamycin 32 microg/ml): 13,898.57
